Results of unrelated studies side by side (data: NIAID ChemDB).

Shared fields: tests on isolated targets; agent: HIV-1; target: Integrase; read-out: IC50

An empty or dashed field is not shown. ICn: concentration for n% inhibition. Conditions beyond the fields shown may differ between rows.

smiles,strain,changes,read by,result
[N-]=[N+]=[N-].[Na+],-,-,absorbance,<50 µg/mL
CN1C/C(=C\c2cc(O)c(O)c(O)c2)C(=O)/C(=C/c2cc(O)c(O)c(O)c2)C1,-,-,3′ processing,0.4 µM
CNS(=O)(=O)OC1C2OC([C@@H](C)C(C)C)C[C@@H](C)[C@@H]2[C@@]2(C)CC[C@H]3[C@@H]([C@@H](OS(=O)(=O)O)[C@@H](O)[C@H]4[C@@H](O)[C@H](OS(=O)(=O)O)CC[C@@]43C)[C@H]12,-,-,-,15 µg/mL
CCOC(=O)C(C(=O)OCC)c1cn(S(=O)(=O)c2ccc(C)cc2)c2ccc(NC(=O)c3ccc(F)cc3Cl)cc12,-,Y143R,strand transfer / fluorescence,>25 µM
Nc1ccn(C2C[C@H](O)[C@@H](COP(=O)(O)O[C@H]3[C@H](n4cnc5c(N)ncnc54)CO[C@@H]3COP(=O)(O)O)O2)c(=O)n1,-,-,3′ processing,19 µM
O=C1NC(=S)NC(=O)C1=Cc1cc(O)c(O)c(O)c1,-,-,3′ processing,1 µM
COc1ccc(CN=[N+]=[N-])cc1C(=O)CC(=O)C(=O)O,-,-,3′ processing,>100 µM
O=C(/C=C/c1ccc(O)c(O)c1/C=C/c1ccc(O)c(O)c1)O[C@H](Cc1ccc(O)c(O)c1)C(=O)O,-,-,ELISA,13.69 µg/mL
COC(=O)c1ccc2cc(/C=C/c3ccc(O)c(O)c3)oc2c1O,-,-,3′ processing,42.9 µM
CCN1C/C(=C\c2ccc(O)c([N+](=O)[O-])c2)C(=O)/C(=C/c2ccc(O)c([N+](=O)[O-])c2)C1,-,-,3′ processing,>100 µM
O=C(C1=C(O)C(=O)N(c2nncs2)C1c1ccc(F)cc1)c1cccs1,-,-,-,>100 µM
O=C1/C(=C/c2cc(O)c(O)c(O)c2)CCC/C1=C\c1cc(O)c(O)c(O)c1,-,-,disintegration,1.6 µM
CCOC(=O)C(C(=O)OCC)c1cn(S(=O)(=O)c2ccc(C)cc2)c2ccc(NC(=O)c3ccc(OC)cc3)cc12,-,Y143R,strand transfer / fluorescence,>25 µM
O=C(/C=C/c1ccc(O)c2c1[C@H](C(=O)O)[C@H](c1ccc(O)c(O)c1)O2)O[C@H](Cc1ccc(O)c(O)c1)C(=O)O,-,-,ELISA,5.25 µg/mL
CCOC(=O)C(C(=O)OCC)c1cn(S(=O)(=O)c2ccc(C)cc2)c2ccc(NC(=O)c3cccc([N+](=O)[O-])c3)cc12,-,-,strand transfer / fluorescence,22.5 µM
CCOC(=O)CC1C/C(=C\c2ccc(O)c(O)c2)C(=O)/C(=C/c2ccc(O)c(O)c2)C1,-,-,strand transfer,4.3 µM
COC(=O)c1ccc2cc(/C=C/c3ccc(OC)cc3)oc2c1OC,-,-,3′ processing,>>100 µM
Cc1ccc(S(=O)(=O)n2cc(C(C(=O)O)C(=O)O)c3cc(NC(=O)c4cc(F)c(F)c(F)c4)ccc32)cc1,-,-,strand transfer / fluorescence,>25 µM
CCCCCCCNC1=C(O)c2ccccc2C(=O)C1=O,-,-,3′ processing,>100 µM
COC(=O)c1ccc2cc(/C=C/c3ccc(O)cc3)oc2c1OC,-,-,3′ processing,>>100 µM
O=C1NC(=O)C(=Cc2cc(O)c(O)c(O)c2)C(=O)N1,-,-,strand transfer,4 µM
O=C1c2ccccc2C(=O)c2c(O)ccc(O)c21,-,-,disintegration,>40 µM
O=C1OC(c2ccccc2)/C(=C(\O)c2ccc(Cl)cc2)C1=O,-,-,-,0.9 µM
O=C(/C=C/c1ccc(O)c2c1[C@H](C(=O)O)[C@@H](c1ccc(O)c(O)c1)O2)O[C@H](Cc1ccc(O)c(O)c1)C(=O)O,-,-,ELISA,17.87 µg/mL
O=C(O)c1ccc2ccc(/C=C/c3ccc(O)c(O)c3)nc2c1O,-,-,3′ processing,18.9 µM
OC1/C(=C/c2ccc(Cl)c(Cl)c2)COC/C1=C\c1ccc(Cl)c(Cl)c1,-,-,3′ processing,>100 µM
O=C(O)c1ccc2cc(/C=C/c3ccc(O)cc3)oc2c1O,-,-,3′ processing,>>100 µM
CCCCCCc1cc2c(O)c(C(c3ccccc3)c3c(O)c4cc(CCCCCC)c(O)cc4oc3=O)c(=O)oc2cc1O,-,-,3′ processing,10.5 µM
Cc1ccc(S(=O)(=O)n2cc(C(C(=O)O)C(=O)O)c3cc(NC(=O)c4cccc(C)c4O)ccc32)cc1,-,Y143R,strand transfer / fluorescence,>25 µM
O=C(/C=C(\O)c1ccc(Cl)cc1)C(=O)Nc1ccccc1,-,-,-,1.9 µM
Cc1ccc(S(=O)(=O)n2cc(C(=O)/C=C3\OC(C)(C)OC3=O)c3cc(Br)ccc32)cc1,-,-,strand transfer / fluorescence,5.7 µM
CC(=O)Oc1ccc(/C=C/C(=O)O[C@H](C(=O)O)[C@H](OC(=O)/C=C/c2ccc(OC(C)=O)c(OC(C)=O)c2)C(=O)O)cc1OC(C)=O,IIIB,-,disintegration,10 µM
O=C1C(=Cc2ccc(Cl)c(Cl)c2)CCCC1=Cc1ccc(Cl)c(Cl)c1,-,-,strand transfer,>100 µM
Cc1cc(O)c2c(c1)C(=O)c1cc(O)cc(O)c1C2=O,-,-,disintegration,>40 µM

For reference, 4 entries again:

smiles,strain,changes,read by,result
O=C(/C=C(\O)c1ccc(Cl)cc1)C(=O)Nc1ccccc1,-,-,-,1.9 µM
CCOC(=O)C(C(=O)OCC)c1cn(S(=O)(=O)c2ccc(C)cc2)c2ccc(NC(=O)c3ccc(OC)cc3)cc12,-,Y143R,strand transfer / fluorescence,>25 µM
Nc1ccn(C2C[C@H](O)[C@@H](COP(=O)(O)O[C@H]3[C@H](n4cnc5c(N)ncnc54)CO[C@@H]3COP(=O)(O)O)O2)c(=O)n1,-,-,3′ processing,19 µM
O=C1/C(=C/c2cc(O)c(O)c(O)c2)CCC/C1=C\c1cc(O)c(O)c(O)c1,-,-,disintegration,1.6 µM